Data published in publication PMC2362362 (British Journal of Cancer, 1999).

Molecular target: T1, CD30 antigen on the Hodgkin-derived cell line L540Cy (Homo sapiens (Human)., UniProt P28908)
T1 construct: also called CD30 receptor; intact native CD30; source: endogenous, on L540Cy cells
Test: flow cytometry on cells

B1: recombinant anti-CD30 immunotoxin Ki-4(scFv)-ETA' (other)
VH: QVKLQESGTELAKPGAAVKMSCKASGYTFTDYWMHWVKQRPGQGLEWIGYINPNTAYTDYNQKFKDKATLTADKSSSTAYMQLRSLTSEDSAVYYCAKKTTQTTWGFPFWGQGTTVTVSS
VL: DIVLTQSPKSMAMSVGERVTLSCKASENVDSFVSWYQQKPGQSPKLLIYGASNRYTGVPDRFAGSGSGRDFTLTISSVQAEDLADYHCGQNYRYPLTFGAGTKLEIK
- binding result: binds
